Here are results for one compound from US20050267071A1, “Inhibitors of coronavirus protease and methods of use thereof” (Fulcrum Pharmaceuticals, Inc., priority 2003, published 2005).

Structures were worked out from names or drawings and are uncertain.

The assay concerns the target SARS-associated coronavirus protease 3CL^pro (Severe acute respiratory syndrome coronavirus, UniProt P0C6U8). In words: Inhibition kinetics of recombinant SARS-associated 3CLpro protease (FRET fluorogenic substrate, Ki). Format: biochemical. Particulars: read-out: Ki^app; protease 1 μM, 20 minutes preincubation at room temperature, inhibitor 0-150 μM, substrate 5 μM, pH 7.4.

In the case of `Nc1cc(B(O)O)cc(C(=O)OCc2cccc(B(O)O)c2)c1`, the Ki was 3.53 µM.
